Compound potency records, mixed from different reports. Data source: NIAID ChemDB in PubChem.

Shared fields: host cell toxicity; read-out: CC50

CCn: concentration that lowers growth or viability of the cells by n%.

SMILES,cells,read by,setting,value
COc1ccc(OC)c(CCNC(=S)Nc2ccc(Br)cn2)c1,HUMAN SPERM,,,>500 µM
Cc1cn([C@H]2C[C@H](N=[N+]=[N-])[C@@H](CO)O2)c(=O)[nH]c1=O,PBM,XTT,,>4 µM
C[C@H](CCC(=O)NCCS(=O)(=O)O)[C@H]1CC[C@H]2[C@@H]3CC[C@@H]4C[C@H](O)CC[C@]4(C)C3CC[C@]12C,JM,MTT,,>50 µg/mL
S=C(NCCC1=CCCCC1)Nc1ccc(Cl)cn1,HUMAN SPERM,,,57 µM
CN(C)C(=S)NN=C(c1ccccn1)c1ccccn1,CEM-GFP,propidium iodide,,>10 µM
Nc1ccn(C[C@@H](CO)OCP(=O)(O)O)c(=O)n1,TPA-stimulated BCBL-1,,,113 µM
Nc1ccn([C@@H]2O[C@H](CO)C[C@@H]2F)c(=O)n1,M0.MO,,,3.3 µg/mL
Nc1ncnc2c1ncn2CCOCP(=O)(O)O,TPA-stimulated BCBL-1,,,27 µM
C[C@@H]1O[C@@H](O[C@@H]2[C@@H](O)[C@H](OCCc3ccc(O)c(O)c3)O[C@H](COC(=O)/C=C/c3ccc(O)c(O)c3)[C@H]2O)[C@H](O)[C@H](O)[C@H]1O,HL-60,MTT,,11.19 µM
[N-]=[N+]=N[C@H]1[C@@H](O)[C@H](n2cnc3c(N)nccc32)O[C@@H]1CO,HEF,,,26 µg/mL
OCCc1ccc(O[C@@H]2O[C@H](CO)[C@@H](O)[C@H](O)[C@H]2O)c(O)c1,HL-60,MTT,,22.43 µM
COP(=O)(OC)C(=S)SC,BCBL-1,,,>200 µM
COc1ccc(C(=O)NC2N=C(c3cccc(C(F)(F)F)c3)c3ccccc3NC2=O)cc1,HEP-2,,,9 µM
NC1=NC2C(C=CN2CC(CO)CCO)C(=O)N1,BCBL-1,,,471 µM
CCOC(=O)/C=C/[C@H](C[C@@H]1CCNC1=O)NC(=O)[C@@H](CC(=O)[C@@H](NC(=O)c1cc(C)on1)C(C)C)Cc1ccc(F)cc1,BEAS-2B,,,320 µM
S=C(NCCN1CCCCC1)Nc1ccc(Br)cn1,HUMAN SPERM,,,>500 µM
Nc1ccn([C@@H]2O[C@H](CO)C[C@@H]2F)c(=O)n1,MOLT-4,,,7 µg/mL
O=C(CO)CCC(=O)OCCc1ccc2c(c1)OCO2,MDA-MB-231,MTT,,6.92 µM
CC(C)(C)OC(=O)[C@@H]1CCCN1C[C@@H](O)[C@H](Cc1ccccc1)NC(=O)[C@H](CC(N)=O)NC(=O)OCc1ccccc1,MOLT-4,,,214 µg/mL
O=C(NC1N=C(c2ccccc2)c2ccccc2NC1=O)c1cn[nH]c1,HEP-2,,,8.3 µM
Nc1nc2c(ncn2CCOCP(=O)(O)O)c(=O)[nH]1,F-PBMC,,,0.23 µM
Fc1cccc(CCNC(=S)Nc2ccc(Br)cn2)c1,HUMAN SPERM,,,>500 µM
CSC(=O)P(=O)([O-])SC,BCBL-1,,,>200 µM
O=C(Nc1ccsc1)NC1N=C(c2ccccc2)c2ccccc2NC1=O,HEP-2,,,4.8 µM
NC(=O)CCNC(=O)c1ccccc1SC(=O)c1cccnc1,U1 (TNF-alpha induced),MTS,,>100 µM
O=C(O[C@@H]1O[C@@H]2COC(=O)c3cc(O)c(O)c(O)c3-c3c(cc(O)c(O)c3O)C(=O)O[C@H]([C@H]1O)[C@@H]2O)c1cc(O)c(O)c(O)c1,MAGI,XTT,,417 µM
Nc1nc2c(ncn2COCCO)c(=O)[nH]1,BCBL-1,,,≥690 µM
CC(C)CCn1c(=O)/c(=C2\Nc3ccccc3S(=O)(=O)N2)c(=O)c2cccn21,HCV Huh-7/C24,,,>100 µM
CCCCCCCCCCCCCCOC(=O)P(=O)([O-])OC,BCBL-1,,,>63.4 µM
C=CCNC(=S)N/N=C(\c1cccc([N+](=O)[O-])c1)c1ccccn1,CEM-GFP,propidium iodide,,>10 µM
O=C(O)C1=CC(=C(c2ccc(O)c(C(=O)O)c2)c2ccc(O)c(C(=O)O)c2)C=CC1=O,JM,MTT,,1000 µg/mL
COP(=O)([O-])C(=S)SC,BCBL-1,,,>200 µM
COc1ccccc1C(=O)NC1N=C(c2ccccc2)c2ccc(C)cc2NC1=O,HEP-2,,,3 µM
O=c1/c(=C2/Nc3ccc(C4CCCS4(=O)=O)cc3S(=O)(=O)N2)c(=O)n(Cc2ccc(F)cc2)n2cccc12,HCV Huh-7/C24,,,>33 µM
Clc1cc(NC2CCCCC2)nc(SCc2ccccc2)n1,BCBL-1,,,342 µM
COc1cccc(C2(c3ccccc3)NC(NC(=O)N3CCCCC3)C(=O)Nc3ccccc32)c1,HEP-2,,,5 µM
S=C(N/N=C(/c1ccccn1)C1C=CC=CN1)c1ccccc1,CEM-GFP,propidium iodide,,1.2 µM
Fc1ccccc1CCNC(=S)Nc1ccc(Br)cn1,HUMAN SPERM,,,147 µM
CN(C)C(=S)N/N=C(\c1ccccc1)c1ccccn1,CEM-GFP,propidium iodide,,2 µM
O[C@H]1[C@H](O)[C@@H](O)CN2CC[C@H](O)[C@H]12,MOLT-4,,,>500 µg/mL
Nc1ncnc2c1ncn2CCOCP(=O)(O)O,BCBL-1,,,82 µM
CC(C)CCn1c(=O)/c(=C2\Nc3ccc(NS(C)(=O)=O)cc3S(=O)(=O)N2)c(=O)c2cc(F)cn21,HCV Huh-7/C24,,,>1 µM
Nc1nc2c(ncn2CCC(CO)CO)c(=O)[nH]1,TPA-stimulated BCBL-1,,,45 µM
NC(=S)N/N=C(\c1ccccc1)c1ccccn1,CEM-GFP,propidium iodide,,>10 µM
O=Nc1c(-c2c(O)[nH]c3ccccc23)[nH]c2ccccc12,U1,trypan blue,,>16 µM
Nc1nc2c(ncn2COCCO)c(=O)[nH]1,SupT1,,,>250 µM
CC(=O)c1cc(O)c(O)c(=O)cc1C,HepG2-NTCP-12,MTS,3 d,42.5 µM
NC(=O)c1[nH]nc([C@@H]2O[C@H](CO)[C@@H](O)[C@H]2O)c1O,HEF,,,32 µg/mL
CCNC(=S)N/N=C(\c1ccccc1)c1ccccn1,CEM-GFP,propidium iodide,,>10 µM
C[C@@H]1O[C@@H](O[C@@H]2[C@@H](O)[C@H](OCCc3ccc(O)c(O)c3)O[C@H](CO)[C@H]2OC(=O)/C=C/c2ccc(O)c(O)c2)[C@H](O)[C@H](O)[C@H]1O,MDA-MB-231,MTT,,5.56 µM
O=C(O)P(=O)(O)O,BCBL-1,,,≥702 µM
Cc1cn([C@H]2C[C@H](N=[N+]=[N-])[C@@H](CO)O2)c(=O)[nH]c1=O,U-937/HIV-1(IIIB),,,>100 µg/mL
CC(=O)CCCCn1c(=O)c2c(ncn2C)n(C)c1=O,A3.5,,,>>1000 µM

3 of the rows above, restated:

SMILES,cells,read by,setting,value
Nc1nc2c(ncn2CCC(CO)CO)c(=O)[nH]1,TPA-stimulated BCBL-1,,,45 µM
O=C(CO)CCC(=O)OCCc1ccc2c(c1)OCO2,MDA-MB-231,MTT,,6.92 µM
Nc1nc2c(ncn2COCCO)c(=O)[nH]1,BCBL-1,,,≥690 µM

Rows are shuffled and stem from different studies. An empty or dashed field is not shown.